A mixed list of measured activities; the numbers were collected in NIAID ChemDB.

Shared fields: growth or infection tests; agent: Mycobacterium tuberculosis

Percent inhibition refers to the dose given; in toxicity tests it is the harm to the cells.

structure	read by	endpoint	dose	mutations	strain	value
C=C1C(=O)[C@]23[C@H](O)[C@H]1CC[C@H]2[C@@]1(C)[C@H](C[C@H]3OC(C)=O)C(C)(C)CC[C@H]1OC(C)=O	resazurin / absorbance	MIC			H37Ra	1.56–3.125 µg/mL
Cc1nc(N)c2ncn([C@@H]3O[C@H](CO)[C@@H](O)[C@H]3O)c2n1		MIC			H37Ra	5 µg/mL
Cc1ccccc1C1N=C2Oc3ccccc3C=C2C(=O)N1	BACTEC	MIC bound			H37Rv	>12.5 µg/mL
COC(=O)c1c(C(=O)OC)c2ccc3c4ncccc4ccc3n2c1C(=O)c1ccccc1	reporter gene / fluorescence	EC50			H37Rv	>20 µM
Cl.FC(F)(F)C1(C(F)(F)F)N=CC=CN1	BACTEC	inhibition	12.8 µg/mL		H37Rv	2%
Cc1cc(O)c2c(c1)C(=O)C(c1c(C)cc3c(c1O)C(=O)C=CC3=O)=CC2=O		MIC			H37Rv	8 µg/mL
NNC(=O)c1ccncc1		MIC			131-4	0.05 µg/mL
CCn1c(SCC(=O)NN)nnc1-c1ccco1		MIC			H37Rv	>6.25 µg/mL
COc1ccc(C2CC(COC(C)=O)ON2c2ccccc2)cc1		inhibition	6.25 µg/mL		H37Rv	inactive
NNC(=O)c1ccncc1	visual reading / absorbance	MIC90		EJMCh6A MmpL3  (V684A)	H37Rv	0.07 µM
O=C(N/N=C/c1ccc(Cl)cc1)c1cc(-c2ccc(F)cc2F)ccc1O	resazurin	inhibition	6.25 µg/mL		H37Rv	15%
O=c1[nH]c2nc3ccccc3c(=O)n2nc1Cc1ccccc1	BACTEC	inhibition	12.5 µg/mL		H37Rv	-5%
CCCC(C)Oc1ccc(NC(=S)NCCC(=O)O)cc1		MIC			H37Rv	2.5 µg/mL
Nc1c(-c2c(Cl)cccc2Cl)[n+]([O-])c2ccccc2[n+]1[O-]		MIC			KM-R	3.1 µg/mL
Cc1ccc(/C=N/NC(=O)c2cc(-c3ccc(F)cc3F)ccc2O)cc1	resazurin	MIC			H37Rv	>6.25 µg/mL
Cc1ccccc1/C=C1/SC(c2ccccc2C)N(C(=O)NCCCN2c3ccccc3Sc3ccccc32)C1=O	agar	inhibition	25 µg/mL		H37Rv	20%
COc1ccc(C2CC(OC(C)=O)ON2c2ccccc2)cc1		inhibition	6.25 µg/mL		H37Rv	10%
COc1c(Cl)cc(-c2ccc(C(=O)C(Cl)Cl)cc2)cc1Cl		MIC			H37Rv	6.25 µg/mL
C=C1C(=O)[C@@]23CC[C@@H]4[C@@](C)(COC(C)=O)CCC[C@@]4(C)[C@@H]2[C@@H](O)C[C@@H]1C3	resazurin / absorbance	MIC			H37Ra	>50 µg/mL
Cc1cc2c(c3c1c(=O)c1ccccc1n3C)C=CC(C)(C)O2		MIC			ETA-R	12.5 µg/mL
COc1cc(/C=N/NC(=O)c2cc(-c3ccc(F)cc3F)ccc2O)ccc1O	resazurin	MIC			H37Rv	>6.25 µg/mL
O=C(/N=C/c1ccc(Br)cc1)NCCCN1c2ccccc2Sc2ccccc21	agar	inhibition	50 µg/mL		H37Rv	40%
Cc1ccc(S(=O)(=O)Nc2cc(S(=O)(=O)O)c(N)c3c2C(=O)c2ccccc2C3=O)cc1	BACTEC	inhibition	12.5 µg/mL		H37Rv	4%
CC(=O)OC1CC(c2ccc(Cl)cc2)N(c2ccccc2)O1		inhibition	6.25 µg/mL		H37Rv	83%
CCn1c(SCC(=O)N/N=C/c2cccc(OC)c2)nnc1-c1ccco1		EC50			H37Rv	>6.25 µg/mL
CC[C@H]1OC(=O)[C@H](C)[C@@H](O[C@H]2C[C@@](C)(OC)[C@@H](O)[C@H](C)O2)[C@H](C)[C@@H](O[C@@H]2O[C@H](C)C[C@H](N(C)C)[C@H]2O)[C@](C)(OC)C[C@@H](C)C(=O)[C@H](C)[C@@H](O)[C@]1(C)O		MIC			Isolate 2227	>4 µg/mL
Nc1nc(N)c(N=Nc2ccc(S(=O)(=O)c3ccc(N=Nc4c(N)nc(N)nc4N)cc3)cc2)c(N)n1	BACTEC	MIC bound			H37Rv	>12.5 µg/mL
CCn1c(SCC(=O)N/N=C/c2ccc(OC)cc2)nnc1-c1ccco1		EC50			H37Rv	>6.25 µg/mL
COc1ccc(/C=C2/SC(c3ccc(OC)cc3)N(C(=O)NCCCN3c4ccccc4Sc4ccccc43)C2=O)cc1	agar	inhibition	25 µg/mL		H37Rv	28%
CC1=C[C@@]23[C@H](C=C(C(=O)O)[C@@H]2COC(=O)[C@]32CO2)[C@H]1C	BACTEC	MIC bound			H37Rv	≤12.8 µg/mL
O=C(c1ccc(-c2ccccc2)cc1)C(Br)Br		MIC			H37Rv	6.25 µg/mL
CO[C@H]1/C=C/O[C@@]2(C)Oc3c(C)c(O)c4c(O)c(c5c(c4c3C2=O)NC2(CCN(CC(C)C)CC2)N=5)=NC(=O)/C(C)=C\C=C\[C@H](C)[C@H](O)[C@@H](C)[C@@H](O)[C@@H](C)[C@H](OC(C)=O)[C@@H]1C		MIC			Strain .9	0.003 µg/mL
O=C(N/N=C/c1ccc([N+](=O)[O-])cc1)c1cc(-c2ccc(F)cc2F)ccc1O	resazurin	MIC			H37Rv	>6.25 µg/mL
O=C1CSC(c2cccc(Cl)c2)N1C(=O)NCCCN1c2ccccc2Sc2ccccc21	agar	inhibition	50 µg/mL		H37Rv	60%
C=C1C(=O)[C@@]23[C@@H]4C[C@H]5C(=CCC5(C)C)[C@@](C)(O4)[C@@H]2CC[C@@H]1[C@H]3O	resazurin / absorbance	MIC			H37Rv	25–50 µg/mL
O=C(N/N=C/c1cccnc1)C(=O)Nc1cccc(C(F)(F)F)c1	BACTEC	MIC bound			H37Rv	>12.5 µg/mL
CC(=O)OCC1CC(c2ccc([N+](=O)[O-])cc2)N(c2ccccc2)O1		inhibition	6.25 µg/mL		H37Rv	inactive
O=C1CCNC(=S)N1C1CCCCC1		MIC			H37Rv	2.5 µg/mL
COC(=O)c1c(C(=O)OC)c2ccc3c4ncccc4ccc3n2c1C(=O)c1ccc(C)cc1	reporter gene / fluorescence	EC90			H37Rv	>200 µM
COC(=O)c1cc(-c2ccc(F)cc2F)ccc1O	resazurin	MIC			H37Rv	>6.25 µg/mL
CC(CC(=O)NN)Nc1ccc2ccccc2c1		EC50			Drug-resistant	5 µg/mL
COc1ccc(NC(=S)NCCC(=O)O)cc1		MIC			H37Rv	1.3 µg/mL
C=C1C(=O)[C@@]23[C@H](O)C[C@@H]4C(C)(C)CC[C@@H](OC(C)=O)[C@@]4(C)[C@@H]2CC[C@@H]1[C@H]3OC(C)=O	resazurin / absorbance	MIC			H37Ra	3.125–6.25 µg/mL
CC(NC(=O)OCc1ccccc1)C(=O)NC1C(CO)OC(n2cnc3c(N)ncnc32)C1O	BACTEC	inhibition	12.5 µg/mL		H37Rv	-3%
CCCCCCCCN1C(=O)CCNC1=S		MIC			H37Rv	5 µg/mL
CCN=C(Nc1cccc(C2=NCCN2)c1)c1ccc(C(=NCC)Nc2cccc(C3=NCCN3)c2)cc1	BACTEC	inhibition	12.5 µg/mL		H37Rv	36%
C=C1C[C@@]23CC[C@@H]4[C@@](C)(CO)CCC[C@@]4(C)[C@@H]2[C@@H](OC(C)=O)C[C@@H]1C3	resazurin / absorbance	MIC			H37Ra	25–50 µg/mL
NC(=O)C(CO)NC(=O)c1ccc[n+](Cc2ccccc2)c1.[I-]	BACTEC	inhibition	12.5 µg/mL		H37Rv	34%
NNC(=O)c1ccncc1	resazurin / absorbance	MIC			H37Rv	0.0062–0.012 µg/mL
O=C(CCl)c1ccc(S(=O)(=O)c2ccccc2)cc1		MIC			H37Rv	100 µg/mL
CCOC(=O)c1ccc(NC(=O)Oc2cc(=O)oc3ccccc23)cc1	BACTEC	inhibition	12.5 µg/mL		H37Rv	79%
CCCCCCCCO[C@H]1O[C@H](CO[C@H]2O[C@H](CO)[C@@H](O)[C@@H]2O)[C@@H](O)[C@@H]1O		MIC			H37Ra	>128 µg/mL
C=C(C)[C@@H]1CC[C@]2(C)CCC3(C)[C@H](CC[C@@H]4[C@@]5(C)CC[C@H](O)C(C)(C)[C@@H]5CC[C@]43C)[C@@H]12		MIC			H37Rv	>128 µg/mL
O=C(c1ccc(CCc2ccccc2)cc1)C(Cl)Cl		MIC			H37Rv	6.25 µg/mL
CCCCCCCCO[C@H]1O[C@H](CO[C@H]2O[C@H](COC(=O)c3ccccc3)[C@@H](OC(=O)c3ccccc3)[C@@H]2OC(=O)c2ccccc2)[C@@H](OCc2ccccc2)[C@@H]1OCc1ccccc1		MIC			H37Ra	>128 µg/mL
O=C(c1ccc(Oc2ccc(C(=O)C(Br)Br)cc2)cc1)C(Br)Br		MIC			H37Rv	25 µg/mL
C=C1C[C@]23C[C@H]1CC[C@H]2[C@]1(C)CCC[C@](C)(COC(C)=O)[C@H]1C[C@H]3O	resazurin / absorbance	MIC			H37Rv	>50 µg/mL
Brc1ccc2nc(CCC3CCCCC3)[nH]c2c1	visual reading / absorbance	MIC90		4/1 MmpL3 (V285A)	H37Rv	19.5 µM
CCC[C@H]1C[C@@H]2CC[C@@H](O2)[C@H](C)C(=O)O[C@@H]([C@H](C)[C@H]2CC[C@@H](C[C@@H](CCC)N(C)C)O2)[C@H](C)[C@@H]2CC[C@@H](O2)[C@@H](C)C(=O)O1		MIC			14 isolates	1.5 µg/mL
CCOC(=O)c1cc(C(=O)c2ccc(OC)cc2)n2c1ccc1c3ncccc3ccc12	reporter gene / fluorescence	MIC			H37Rv	>200 µM
Cc1ccc(NP2(Nc3ccc(C)cc3)=NP(Nc3ccc(C)cc3)(N3CC3)=NP(Nc3ccc(C)cc3)(N3CC3)=N2)cc1		MIC			PAS-R	6.4 µg/mL
CCN1C(=O)[C@@H]2[C@H](C1=O)[C@@H](C(=O)c1ccc(C)cc1)N1c3ccc4cccnc4c3C=C[C@H]21	reporter gene / fluorescence	EC90			H37Rv	>100 µM
CC(C)Oc1ccc(N2C(=O)CCNC2=S)cc1		MIC			H37Rv	2.5 µg/mL
COc1c(C)c2c3c4c1C(=O)C(=CC4=O)NC(=O)/C(C)=C\C=C\[C@H](C)[C@@H]1OC(C)(C)O[C@@H]([C@@H](C)[C@H](OC(C)=O)[C@H](C)[C@@H](OC)/C=C/O[C@@](C)(O2)C3=O)[C@@H]1C	BACTEC	inhibition	12.5 µg/mL		H37Rv	94%
NNC(=O)CNc1ccc2ccccc2c1		EC50			H37Rv	0.5 µg/mL
N#CCCN(CCC#N)c1ccc(/C=C2/N=C(COc3ccc(Cl)cc3Cl)OC2=O)cc1	BACTEC	MIC bound			H37Rv	>12.5 µg/mL
CCn1c(SCC(=O)N/N=C/c2ccc([N+](=O)[O-])cc2)nnc1-c1ccco1		inhibition	6.25 µg/mL		H37Rv	12%
COc1ccc2c(c1)n([O-])c1cc(C#N)ccc1[n+]2=O		MIC			RMP-R	12.5 µg/mL
CO[C@H]1/C=C/O[C@@]2(C)Oc3c(C)c(O)c4c(O)c(c5c(c4c3C2=O)NC2(CCN(CC(C)C)CC2)N=5)=NC(=O)/C(C)=C\C=C\[C@H](C)[C@H](O)[C@@H](C)[C@@H](O)[C@@H](C)[C@H](OC(C)=O)[C@@H]1C		MIC			Isolate 900240 drug-susceptible	0.125 µg/mL
Cc1ccc(S(=O)(=O)OC[C@H]2O[C@@]3(COS(=O)(=O)c4ccc(C)cc4)OC(C)(C)O[C@H]3[C@@H]2O)cc1	BACTEC	inhibition	12.5 µg/mL		H37Rv	-37%
CCOC(=O)c1cc(C(=O)c2ccc(C)cc2)n2c1ccc1c3ncccc3ccc12	reporter gene / fluorescence	EC90			H37Rv	>200 µM
CCCCNC1=C(C(=O)OCC)/C(=N/NC(=O)c2ccccc2O)CO1	BACTEC	inhibition	12.5 µg/mL		H37Rv	13%
CC(=O)OCC1CC(c2ccccc2)N(c2ccccc2)O1		inhibition	6.25 µg/mL		H37Rv	inactive
CCN(CC)CCC(=O)OC1/C(C)=C/C(C)C(=O)CC(C(C)CC2CCC(O)C(OC)C2)OC(=O)C2CCCCN2C(=O)C(=O)[C@@]2(O)OC(CCC2C)CC(OC)\C(C)=C/C=C/C=C/C(C)CC(C)C(=O)C1OC	BACTEC	inhibition	12.5 µg/mL		H37Rv	23%
COC(=O)c1c(C(=O)OC)c2ccc3c4ncccc4ccc3n2c1C(=O)c1ccc(Br)cc1	reporter gene / fluorescence	EC90			H37Rv	>20 µM

Again, the opening 5 rows:

| structure | read by | endpoint | dose | mutations | strain | value |
|---|---|---|---|---|---|---|
| C=C1C(=O)[C@]23[C@H](O)[C@H]1CC[C@H]2[C@@]1(C)[C@H](C[C@H]3OC(C)=O)C(C)(C)CC[C@H]1OC(C)=O | resazurin / absorbance | MIC |  |  | H37Ra | 1.56–3.125 µg/mL |
| Cc1nc(N)c2ncn([C@@H]3O[C@H](CO)[C@@H](O)[C@H]3O)c2n1 |  | MIC |  |  | H37Ra | 5 µg/mL |
| Cc1ccccc1C1N=C2Oc3ccccc3C=C2C(=O)N1 | BACTEC | MIC bound |  |  | H37Rv | >12.5 µg/mL |
| COC(=O)c1c(C(=O)OC)c2ccc3c4ncccc4ccc3n2c1C(=O)c1ccccc1 | reporter gene / fluorescence | EC50 |  |  | H37Rv | >20 µM |
| Cl.FC(F)(F)C1(C(F)(F)F)N=CC=CN1 | BACTEC | inhibition | 12.8 µg/mL |  | H37Rv | 2% |

Neighbouring rows are from separate reports. An empty or dashed field is not shown. a–b is a range or a potency band. For "inactive" no cut-off is given. ECn is the concentration giving n% inhibition of infection, replication or growth. MIC50, MIC90 and the like: level of inhibition, or share of isolates inhibited. MIC bound: limit read from a one-dose screen.